Pooled drug test results. Numbers come from NIAID ChemDB, via PubChem.

Common to all: enzyme or target tests

Inhibition is in % at the dose shown (toxicity tests: loss of growth or viability). Fold resistance: result on the changed form divided by that on wild type. ICn: concentration for n% inhibition. Neighbouring rows are from separate reports. An empty or dashed field is not shown. a–b is a range or a potency band.

smiles,dose,protein,changes,strain or isolate,organism,endpoint,read by,result
Fc1ccccc1N1CCN(c2cncc(-c3cccc4ccccc34)n2)CC1,,UL97 kinase,,,Cytomegalovirus,IC50,,<100 µM
O=C(NC(Cc1ccccc1)c1ccccc1)c1cn2c(c(O)c1=O)C(=O)N(Cc1cccc(Cl)c1)CC2,,Integrase,,,HIV-1,IC50,ELISA,0.01–0.1 µM
Nc1nc2c(ncn2COC(CO)COP(=O)(O)OP(=O)(O)OP(=O)(O)O)c(=O)[nH]1,,DNA polymerase,,,Epstein-Barr virus,Ki,,0.08 µM
O=C(O)c1ccc(N2C(=O)C(=Cc3ccc(-c4ccc(Cl)s4)o3)SC2=S)cc1,,NS5 polymerase,,,Bovine viral diarrhea virus,IC50,,≤1 µM
N/C(=N\OC(=O)c1cnc2ccccc2n1)c1ccc(Cl)cc1Cl,,Polymerase,,,Human cytomegalovirus,IC50,scintillation proximity / radiometric,>100 µM
CCOc1ccc(-c2ccc(OC)cc2-c2ccc3cc(-c4nc5cc(C(=O)O)ccc5n4C4CCCCC4)ccc3n2)cc1,100 µM,NS5B polymerase,,,Hepatitis C virus,inhibition,,99.69%
O=C(c1ccc(Cl)cc1)c1ccc(OCCN2CCN(CCO)CC2)cc1,10 µM,Oxidosqualene cyclase,,,Pneumocystis carinii,inhibition,,20%
CC(C)(C)C(O)c1cc(=O)c(O)c2n1CCN(Cc1ccc(Cl)c(Cl)c1)C2=O,,Integrase,,,HIV-1,IC50,ELISA,0.01–0.1 µM
O=C(O)CCCCCc1ccc(N2C(=O)C(=Cc3ccc(-c4ccc(Cl)c(Cl)c4)o3)SC2=S)cc1,,NS5 polymerase,,,Bovine viral diarrhea virus,IC50,,≤1 µM
N/C(=N\OC(=O)Cc1ccccc1)c1ccc(Cl)cc1Cl,,Polymerase,,,Human cytomegalovirus,IC50,scintillation proximity / radiometric,44 µM
O=C(O)c1ccc2c(c1)nc(-c1ccc3nc(-c4cnn(-c5ccccc5)c4)ccc3c1)n2C1CCCCC1,100 µM,NS5B polymerase,,,Hepatitis C virus,inhibition,,101%
CCOc1ccc(-c2cncc(N3CCN(c4ccc(F)cc4)CC3)n2)cc1,,UL97 kinase,,,Cytomegalovirus,IC50,,<100 µM
COc1c(N2CCNC(C)C2)ccc2c(=O)c(C(=O)O)cn(C3CC3)c12,,DNA gyrase,,,Streptococcus pneumoniae,IC50,,147 µg/mL
O=C(O)CCN1C(=O)C(=Cc2ccc(-c3cccc(Cl)c3)o2)SC1=S,,NS5 polymerase,,,Bovine viral diarrhea virus,IC50,,≤1 µM
Clc1cc(CN2CCCNCCNCCCNCC2)cc(Cl)n1,,CXCR4,CXCR4-D182N,,,fold resistance,,1.33
Cc1onc(-c2ccccc2)c1C(=O)O/N=C(\N)c1ccc(Cl)cc1Cl,,Polymerase,,,Human cytomegalovirus,IC50,scintillation proximity / radiometric,0.7 µM
COC(=O)C(CCSC)NC(=O)C1(Cc2ccccc2C)CCN(C(=O)[C@@H](N)CS)CC1,,Farnesyl-protein transferase,,,Candida albicans,IC50,,0.35 µM
CCCCCCCC/C=C/CCCCCCCC(=O)Nc1nnc(NC[C@@H]2CCC3CC2C3(C)C)s1,,Polymerase,,,Human cytomegalovirus,IC50,,<25 µM
CCCCC1CN(Cc2ccc(Cl)c(Cl)c2)C(=O)c2c(O)c(=O)ccn21,,Integrase,,,HIV-1,IC50,ELISA,0.01–0.1 µM
N/C(=N/OC(=O)c1cccc2ccccc12)c1cccc(Cl)c1,,Polymerase,,,Human cytomegalovirus,IC50,scintillation proximity / radiometric,>100 µM
COc1cccc(N2CCN(c3cncc(-c4ccc(C(F)(F)F)cc4)n3)CC2)c1,,UL97 kinase,,,Cytomegalovirus,IC50,,<10 µM
NC1CCN(c2ccc3c(=O)c(C(=O)O)cn(C4CC4)c3c2Cl)C1,,DNA gyrase,,,Streptococcus pneumoniae,IC50,,37.7 µg/mL
c1ccc(N2CCN(c3cncc(-c4cccc5ccccc45)n3)CC2)cc1,,UL97 kinase,,,Cytomegalovirus,IC50,,<100 µM
O=C1c2c(O)c(=O)ccn2C2(CCCC2)CN1Cc1ccc(Cl)c(Cl)c1,,Integrase,,,HIV-1,IC50,ELISA,0.01–0.1 µM
C[C@H](CO)[C@@H](OC(=O)NCCSc1ncccn1)[C@@H]1OC(C(=O)O)=C[C@H](N=C(N)N)[C@H]1NC(=O)O,,Sialidase,,Victoria,Influenza B virus,IC50,,0.084 µM
COc1ccc(C2CC(c3cc4ccccc4o3)=NN2c2ccc([N+](=O)[O-])cc2)cc1,,Geranylgeranyl-protein transferase I,,,Candida albicans,IC50,,0.05 µM
FC(F)(F)c1cccc(N2CCN(c3cncc(-c4cc5ccccc5s4)n3)CC2)c1,,UL97 kinase,,,Cytomegalovirus,IC50,,<10 µM
O=C(Nc1nnc(NCCCn2ccnc2)s1)c1ccc(I)cc1,,Polymerase,,,Human cytomegalovirus,IC50,,>25 µM
O=c1ccn2ccn(CCCc3cccc(Cl)c3)c(=O)c2c1O,,Integrase,,,HIV-1,IC50,ELISA,0.01–0.1 µM
O=C(O)c1ccc(N2C(=O)C(=Cc3ccc(-c4cc(Cl)cc(Cl)c4)o3)SC2=S)cc1,,NS5 polymerase,,,Bovine viral diarrhea virus,IC50,,≤1 µM
N/C(=N/OC(=O)c1cccc2ccccc12)c1cc(Cl)cc(Cl)c1,,Polymerase,,,Human cytomegalovirus,IC50,scintillation proximity / radiometric,>100 µM
NNC(=O)c1ccncc1,1000 µM,Citrate synthase,,H37RV (INH 10 ug/mL-R),Mycobacterium tuberculosis,inhibition,,0%
NS(=O)(=O)c1ccc(CNc2nnc(NC(=O)c3ccc(Cl)c(Cl)c3)s2)cc1,,Polymerase,,,Human cytomegalovirus,IC50,,>25 µM
N/C(=N/OC(=O)c1cccc2ccccc12)c1ccccc1Cl,,Polymerase,,,Human cytomegalovirus,IC50,scintillation proximity / radiometric,>100 µM
COc1ccc(-c2cncc(N3CCN(c4ccc(Cl)c(Cl)c4)CC3)n2)cc1OC,10 µM,UL97 kinase,,,Cytomegalovirus,inhibition,,>15%
N[C@H]1CSSC[C@@H](C(=O)O)NC(=O)CNC(=O)[C@H](Cc2c[nH]c3ccccc23)NC(=O)[C@@H]2CCCN2C(=O)[C@H](Cc2ccccc2)NC1=O,,Polymerase,,,Respiratory syncytial virus,IC50,,>150 µM
O=C(O)c1cccc(N2C(=O)C(=Cc3ccc(-c4cc(C(F)(F)F)ccc4Cl)o3)SC2=S)c1,,NS5 polymerase,,,Bovine viral diarrhea virus,IC50,,≤1 µM
Nc1nc2c(ncn2[C@H]2CO[C@@H](COP(=O)(O)OP(=O)(O)OP(=O)(O)O)O2)c(=O)[nH]1,,Reverse transcriptase,RT-L74V,,HIV,fold resistance,radiometric,1.1
O=C(Nc1nnc(NCc2cccnc2)s1)c1cc2ccccc2s1,,Polymerase,,,Human cytomegalovirus,IC50,,>25 µM
COc1ccc2nc(NC(=O)C(=O)C(C(=O)c3ccc(-c4ccccc4)cc3)C3OC(=O)c4ccccc43)sc2c1,,Geranylgeranyl-protein transferase I,,,Candida albicans,IC50,,0.06 µM
N/C(=N\OC(=O)c1cccc(Cl)c1)c1ccc(Cl)cc1Cl,,Polymerase,,,Human cytomegalovirus,IC50,scintillation proximity / radiometric,11 µM
CC1(c2ccc(OCC#N)c(Cl)c2Cl)C(=O)c2ccccc2C1=O,,Farnesyl-protein transferase,,,Candida albicans,IC50,,124 µM
O=C(O)c1ccc(N2C(=O)C(=Cc3ccc(-c4ccc5c(c4)OCO5)o3)SC2=S)cc1,,NS5 polymerase,,,Bovine viral diarrhea virus,IC50,,≤1 µM
C[C@H](CO)[C@@H](OC(=O)NCCO[C@@H]1O[C@@H](CO)[C@H](O)[C@@H](O)[C@H]1O)[C@@H]1OC(C(=O)O)=C[C@H](N=C(N)N)[C@H]1NC(=O)O,,Sialidase,,Victoria,Influenza B virus,IC50,,0.16 µM
NC(=O)[C@H](Cc1cnc[nH]1)NC(=O)c1ccc2ccc(-c3nc4cc(C(=O)O)ccc4n3C3CCCCC3)cc2n1,33 µM,NS5B polymerase,,,Hepatitis C virus,inhibition,,51.25%
CC(=O)CC1(O)c2c3[nH]c4ccccc4c3cc[n+]2C2C=CC=CC21,300 µM,p56lck tyrosine kinase,,,,inhibition,ELISA,56%
CC(C)c1cc(C(C)C)c(C(=O)Nc2nnc(NCCc3ccc(S(N)(=O)=O)cc3)s2)c(C(C)C)c1,,Polymerase,,,Human cytomegalovirus,IC50,,<25 µM
Cc1cccc(-c2cncc(N3CCN(c4ccccc4)CC3)n2)c1,10 µM,UL97 kinase,,,Cytomegalovirus,inhibition,,>15%
C[C@H](CO)[C@@H](OC(=O)N(CCCN)CCCCN)[C@@H]1OC(C(=O)O)=C[C@H](N=C(N)N)[C@H]1NC(=O)O,,Sialidase,,H3N2 AICHI,Influenza A virus,IC50,,0.72 µM
O=C(O)c1ccc(N2C(=O)C(=Cc3ccc(-c4ccccc4)o3)SC2=S)cc1,,NS5 polymerase,,,Bovine viral diarrhea virus,IC50,,≤1 µM
COc1cccc(-c2ccc3cc(-c4nc5cc(C(=O)O)ccc5n4C4CCCCC4)ccc3n2)c1,33 µM,NS5B polymerase,,,Hepatitis C virus,inhibition,,93.46%
N/C(=N/OC(=O)c1cccc2ccccc12)c1c(Cl)cc(Cl)cc1Cl,,Polymerase,,,Human cytomegalovirus,IC50,scintillation proximity / radiometric,13.7 µM
O=C(/C=C/c1ccccc1)Nc1nnc(NCc2cccc3ccccc23)s1,,Polymerase,,,Human cytomegalovirus,IC50,,>25 µM
CN1CCN(c2ccc3c(=O)c(C(=O)O)cn(C4CC4)c3c2)CC1,,DNA gyrase,,,Streptococcus pneumoniae,IC50,,186 µg/mL
O=C(O)c1ccc2c(c1)nc(-c1ccc3c(c1)CCC(c1ccccc1)N3)n2C1CCCCC1,100 µM,NS5B polymerase,,,Hepatitis C virus,inhibition,,101%
CC(=O)c1ccc(-c2ccc(C=C3SC(=S)N(c4ccc(C(=O)O)cc4)C3=O)o2)s1,,NS5 polymerase,,,Bovine viral diarrhea virus,IC50,,≤1 µM
O=C(O)C1CCCN1C(=O)c1ccc2c(c1)nc(-c1ccc3nc(-c4ccccc4)ccc3c1)n2C1CCCCC1,100 µM,NS5B polymerase,,,Hepatitis C virus,inhibition,,88.16%
CCCN(CCC)C(=O)O[C@@H]([C@@H]1OC(C(=O)O)=C[C@H](N)[C@H]1NC(=O)O)[C@H](C)CO,,Sialidase,,Victoria,Influenza B virus,IC50,,2 µM
Nc1nc(=O)n([C@@H]2O[C@H](COP(=O)(O)OP(=O)(O)OP(=O)(O)O)[C@@H](O)[C@@H]2F)cc1I,,DNA polymerase,,,Epstein-Barr virus,Ki,,0.95 µM
O=C1c2c(O)c(=O)c(-c3nccs3)cn2CCN1Cc1ccc2ccccc2c1,,Integrase,,,HIV-1,IC50,ELISA,<0.01 µM
O=C(O)c1ccc2c(c1)nc(-c1ccc3nc(-c4ccccc4-c4ccc(Cl)cc4)c(-c4ccccc4)cc3c1)n2C1CCCCC1,100 µM,NS5B polymerase,,,Hepatitis C virus,inhibition,,97.75%
Fc1ccc(N2CCN(c3cncc(-c4ccc(F)c(Cl)c4)n3)CC2)c(F)c1,,UL97 kinase,,,Cytomegalovirus,IC50,,<100 µM
O=C(O)c1cn(C2CC2)c2cc(N3CCNCC3)ccc2c1=O,,Topoisomerase II,,,Streptococcus pneumoniae,IC50,,30.4 µg/mL
O=C(c1ccc(-c2ccc(Cl)cc2)c(-c2ccc3cc(-c4nc5ccccc5n4C4CCCCC4)ccc3n2)c1)N1CCCC1,100 µM,NS5B polymerase,,,Hepatitis C virus,inhibition,,95.05%
O=C1c2c(O)c(=O)c(-c3nccs3)cn2CCN1CCCc1ccccc1Cl,,Integrase,,,HIV-1,IC50,ELISA,<0.01 µM
CCCNC(=O)O[C@@H]([C@@H]1OC(C(=O)O)=C[C@H](N)[C@H]1NC(=O)O)[C@H](C)CO,,Sialidase,,H3N2 AICHI,Influenza A virus,IC50,,4.2 µM
Fc1ccc(-c2cncc(N3CCN(c4cccc(Cl)c4)CC3)n2)cc1,,UL97 kinase,,,Cytomegalovirus,IC50,,<10 µM
CN(C)C(=O)c1cn(Cc2cccc(Cl)c2)c(=O)c2c(O)c(=O)ccn12,,Integrase,,,HIV-1,IC50,ELISA,0.01–0.1 µM

Repeating the final 9 entries:

smiles	dose	protein	changes	strain or isolate	organism	endpoint	read by	result
O=C1c2c(O)c(=O)c(-c3nccs3)cn2CCN1Cc1ccc2ccccc2c1		Integrase			HIV-1	IC50	ELISA	<0.01 µM
O=C(O)c1ccc2c(c1)nc(-c1ccc3nc(-c4ccccc4-c4ccc(Cl)cc4)c(-c4ccccc4)cc3c1)n2C1CCCCC1	100 µM	NS5B polymerase			Hepatitis C virus	inhibition		97.75%
Fc1ccc(N2CCN(c3cncc(-c4ccc(F)c(Cl)c4)n3)CC2)c(F)c1		UL97 kinase			Cytomegalovirus	IC50		<100 µM
O=C(O)c1cn(C2CC2)c2cc(N3CCNCC3)ccc2c1=O		Topoisomerase II			Streptococcus pneumoniae	IC50		30.4 µg/mL
O=C(c1ccc(-c2ccc(Cl)cc2)c(-c2ccc3cc(-c4nc5ccccc5n4C4CCCCC4)ccc3n2)c1)N1CCCC1	100 µM	NS5B polymerase			Hepatitis C virus	inhibition		95.05%
O=C1c2c(O)c(=O)c(-c3nccs3)cn2CCN1CCCc1ccccc1Cl		Integrase			HIV-1	IC50	ELISA	<0.01 µM
CCCNC(=O)O[C@@H]([C@@H]1OC(C(=O)O)=C[C@H](N)[C@H]1NC(=O)O)[C@H](C)CO		Sialidase		H3N2 AICHI	Influenza A virus	IC50		4.2 µM
Fc1ccc(-c2cncc(N3CCN(c4cccc(Cl)c4)CC3)n2)cc1		UL97 kinase			Cytomegalovirus	IC50		<10 µM
CN(C)C(=O)c1cn(Cc2cccc(Cl)c2)c(=O)c2c(O)c(=O)ccn12		Integrase			HIV-1	IC50	ELISA	0.01–0.1 µM